Compound potency records, mixed from different reports. Data source: NIAID ChemDB in PubChem.

Shared fields: whole-cell or culture tests; agent: Epstein-Barr virus; method: hybridisation; endpoint: EC50

Rows are shuffled and stem from different studies. ECn is the concentration giving n% inhibition of infection, replication or growth. Blank or dashed fields: not listed here.

structure,cells,result
O=c1[nH]c(=O)n([C@H]2C[C@H](O)[C@@H](CO)O2)cc1/C=C/Br,P3HR-1,≥50 µg/mL
COc1nc(N)nc2c1ncn2C=C1CC1CO,H-1,1.6 µM
C=CCNc1ncnc2c1ncn2CCOCP(=O)(O)O,P3HR-1,11 µg/mL
Cc1cccc2c1OP(=O)(OC[C@H]1O[C@@H](n3cc(/C=C/Br)c(=O)[nH]c3=O)C[C@@H]1OC(=O)[C@H](C)N)OC2,-,24.7 µg/mL
C[C@@H](Cn1cnc2c(N)nc(N)nc21)OCP(=O)(O)O,P3HR-1,>20 µg/mL
Cc1cccc2c1OP(=O)(OC[C@H]1O[C@@H](n3cc(/C=C/Br)c(=O)[nH]c3=O)C[C@@H]1OC(=O)CN)OC2,-,29.8 µg/mL
Nc1nc2c(ncn2CCC(CO)CO)c(=O)[nH]1,P3HR-1,2.3 µg/mL
C[C@H](N)C(=O)O[C@H]1C[C@H](n2cc(/C=C/Br)c(=O)[nH]c2=O)O[C@@H]1COP1(=O)OCc2ccccc2O1,-,18.7 µg/mL
Nc1ccn(C[C@@H](CO)OCP(=O)(O)O)c(=O)n1,P3HR-1,0.1 µg/mL
C[C@H](Cn1cnc2ncnc(N(C)C)c21)OCP(=O)(O)O,P3HR-1,0.8 µg/mL
COC(=O)[C@H](C)NP(=O)(OC[C@H]1C/C1=C/n1cnc2c(N)nc(N)nc21)Oc1ccccc1,H-1,5.5 µM
CC1OP(=O)(OC[C@H]2O[C@@H](n3cc(/C=C/Br)c(=O)[nH]c3=O)C[C@@H]2O)Oc2cccc(Cl)c21,-,33.3 µg/mL
Nc1nc(F)nc2c1ncn2/C=C1/CC1CO,H-1,>20 µM
Cc1cn([C@H]2CC[C@@H](CO)O2)c(=O)n(NO)c1=O,P3HR-1,4.1 µg/mL
COC(=O)C(C)NOP(OC[C@H]1C/C1=C/n1cnc2c(N)[nH]c(=O)nc21)Oc1ccccc1,H-1,>20 µM
Cc1cn([C@H]2C[C@H]([N+](=O)[O-])[C@@H](CO)O2)c(=O)[nH]c1=O,P3HR-1,>50 µg/mL
Cc1cccc2c1OP(=O)(OC[C@H]1O[C@@H](n3cc(/C=C/Br)c(=O)[nH]c3=O)C[C@@H]1OC(=O)[C@H](N)Cc1ccccc1)OC2,-,36.1 µg/mL
COC(=O)[C@H](C)NP(=O)(OC[C@H]1C/C1=C\n1cnc2c(N)nc(N)nc21)Oc1ccccc1,H-1,>10 µM

The last 3 rows once more:

structure | cells | result
Cc1cn([C@H]2C[C@H]([N+](=O)[O-])[C@@H](CO)O2)c(=O)[nH]c1=O | P3HR-1 | >50 µg/mL
Cc1cccc2c1OP(=O)(OC[C@H]1O[C@@H](n3cc(/C=C/Br)c(=O)[nH]c3=O)C[C@@H]1OC(=O)[C@H](N)Cc1ccccc1)OC2 | - | 36.1 µg/mL
COC(=O)[C@H](C)NP(=O)(OC[C@H]1C/C1=C\n1cnc2c(N)nc(N)nc21)Oc1ccccc1 | H-1 | >10 µM